Assay results reported in PMC10296771, “Glycosylation of H4 influenza strains with pandemic potential and susceptibilities to lung surfactant SP-D” (2023).

Molecular target: Dodecameric human SP-D neck and carbohydrate domains with [change] and [change] mutations, biotinylated (human)
Test: SPR

Hemagglutinin (H3) of A/NY/470/2004 (H3N2), on whole virus (natural protein)
Kd: 121 nM
